Assay results published in US8476222B2, “Isolated peptides from Actinomadura namibiensis” (priority 2006, dated 2013).

Tested on: Mycovirus (RNA/Influenza A/Aichi)
Assay type: cell-based
Conditions: host organism Vero cells

**Q.** For `CC(C)C[C@@H]1NC(=O)[C@]23CSC[C@H](NC(=O)[C@H](C)NC(=O)[C@H](Cc4ccccc4)NC1=O)C(=O)N[C@H](C(=O)O)CSSC[C@H](NC(=O)[C@@H]1CSC[C@]4(C[C@H](N)C(=O)N[C@@H](CC(=O)O)C(=O)N[C@@H](Cc5c[nH]c6ccccc56)C(=O)N4)C(=O)N[C@@H](CC(C)C)C(=O)N[C@@H](Cc4c[nH]c5ccccc45)C(=O)N[C@@H](CCC(=O)O)C(=O)N1)C(=O)N[C@@H](C2)C(=O)N[C@@H]([C@@H](C)O)C(=O)NCC(=O)N3` [Labyrinthopeptin (III)], which Inhibition is on record?
**A.** 44.44 mg/L
